{
  "source": "ChEMBL document CHEMBL2177067",
  "about": "(J Med Chem, 2012)",
  "key": {"[1]": {"experiment": "Selectivity index, ratio of CC50 for human HeLa cells to MIC for Staphylococcus aureus ATCC 25923", "assay_type": "functional"}, "[2]": {"experiment": "Selectivity index, ratio of CC50 for human HeLa cells to MIC for Bacillus anthracis", "assay_type": "functional"}},
  "data": [
    {"compound": "Cc1c(CCC(=O)O)c(=O)oc2c(C)c(OCc3ccc(-c4ccccc4)cc3)ccc12", "values": [
      {"measurement": "Selectivity Index", "setting": "[1]", "value": 33},
      {"measurement": "Selectivity Index", "setting": "[2]", "value": 66}
    ]},
    {"compound": "Cc1c(CCC(=O)O)c(=O)oc2c(C)c(OCc3ccc(-c4ccc(Cl)cc4)cc3)ccc12", "values": [
      {"measurement": "Selectivity Index", "setting": "[1]", "value": 20},
      {"measurement": "Selectivity Index", "setting": "[2]", "value": 40}
    ]}
  ]
}
